This is an account of results in publication PMC6458069 (Molecular microbiology, 2019).

Chains of the proteins cited; added tags and fusions are not shown. Lines headed by an entry give the natural chain unless they say otherwise; changes in a name come on top.
UniProt P0A6M2: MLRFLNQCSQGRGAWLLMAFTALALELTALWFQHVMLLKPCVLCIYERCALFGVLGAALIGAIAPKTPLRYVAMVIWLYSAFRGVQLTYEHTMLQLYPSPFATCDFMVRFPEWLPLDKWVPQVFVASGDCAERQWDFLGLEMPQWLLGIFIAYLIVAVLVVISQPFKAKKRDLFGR

The experiment concerns the target T1, EcDsbB (Escherichia coli, UniProt P0A6M2, C49V/C8A).
T1 sequence (P0A6M2 1-176 C8A/C49V): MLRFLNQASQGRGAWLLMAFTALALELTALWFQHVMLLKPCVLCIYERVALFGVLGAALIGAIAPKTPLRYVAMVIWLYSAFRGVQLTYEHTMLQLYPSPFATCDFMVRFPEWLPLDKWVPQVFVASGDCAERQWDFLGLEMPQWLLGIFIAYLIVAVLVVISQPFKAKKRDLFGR
The experiment in a line: In vitro ubiquinone reduction assay with purified EcDsbB. The format is biochemical, E. coli.

The structures appear in SMILES notation.

A word on the IC50: it is the concentration that inhibits the measured activity by half. Regarding `Cn1c(=O)c([N+](=O)[O-])c(Cl)c2ccccc21` [PA3], the IC50 amounted to 17 ± 2 µM.
